Results deposited as PubChem BioAssay AID624099 (ICCB-Longwood, 2012)

Screen: 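Knock-downs relieving repression by E2 of an HPV18 LCR luciferase reporter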 (primary screen)
Cells: human C33A cervical carcinoma cells (HPV-negative) stably expressing BPV1 E2 and an HPV18 LCR luciferase reporter
Reagents: siRNA pool against human genes, 40 nM
Duration: 72 h
Measurement: 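Per-well luciferase luminescence, z-scored on each plate against the plate mean and SD with control wells left out, then averaged across three replicate plates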
Direction: mean z-score and z-score: higher = stronger reporter signal, weaker E2 silencing
Active means: 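Hit if mean z-score reaches 2 and two or more of three replicate z-scores also reach 2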
In all, the deposit lists about 21,000 reagents; below is an unselected part. Of all reagents, 497 (2.4%) are marked active. 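Higher z means weaker E2 silencing; only reporter increases were scored, and knock-downs that hurt cell survival may mask genuine repressor factors.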

BCDIN3D
- mean z-score: 0.94
- z-score, replicate A: 1.04
- z-score, replicate B: 0.73
- z-score, replicate C: 1.05
- Call: inactive

CAB39L
- mean z-score: -0.61
- z-score, replicate A: -0.37
- z-score, replicate B: -0.92
- z-score, replicate C: -0.53
- Call: inactive

MYADM
- mean z-score: 0.35
- z-score, replicate A: 0.26
- z-score, replicate B: 0.31
- z-score, replicate C: 0.48
- Call: inactive

DYSF
- mean z-score: -1.02
- z-score, replicate A: -0.88
- z-score, replicate B: -1.09
- z-score, replicate C: -1.09
- Call: inactive

WDR11
- mean z-score: -1.55
- z-score, replicate A: -1.7
- z-score, replicate B: -1.29
- z-score, replicate C: -1.66
- Call: inactive

APMAP
- mean z-score: -0.36
- z-score, replicate A: -0.47
- z-score, replicate B: -0.28
- z-score, replicate C: -0.33
- Call: inactive

FAM110A
- mean z-score: 0.76
- z-score, replicate A: 0.82
- z-score, replicate B: 0.53
- z-score, replicate C: 0.93
- Call: inactive

DMD
- mean z-score: 0.76
- z-score, replicate A: 0.98
- z-score, replicate B: 0.64
- z-score, replicate C: 0.64
- Call: inactive

KIN
- mean z-score: -0.09
- z-score, replicate A: 0.33
- z-score, replicate B: -0.31
- z-score, replicate C: -0.27
- Call: inactive

TFIP11
- mean z-score: 0.77
- z-score, replicate A: 0.59
- z-score, replicate B: 0.74
- z-score, replicate C: 1
- Call: inactive

PPP1R13B-DT
- mean z-score: 0.48
- z-score, replicate A: 0.56
- z-score, replicate B: 0.05
- z-score, replicate C: 0.83
- Call: inactive

SV2C
- mean z-score: 2.13
- z-score, replicate A: 2.33
- z-score, replicate B: 1.93
- z-score, replicate C: 2.13
- Call: active
